The source of these data is patent US11185516B2 (Laboratorios Silanes S.A. DE C.V., priority 2016, dated 2021).

The conditions of the data set: 1240 mg against metformin hydrochloride 1000 mg.

With `CN(C)C(=N)N=C(N)N` [Metformin glycinate, N,N-dimethylimidodicarbonimidic diamide glycinate], the “bioequivalence (90% C.I. in magnitude and velocity)” value was “within the theoretical ranges of bioequivalence”.
